Test results as given in patent US11331369B2, “Endoparasitic depsipeptides” (Zoetis Services LLC, priority 2017, dated 2022).

Tested on: 4th stage larvae (L4) of Dirofilaria immitis
Test: Dirofilaria immitis, L4 Stage (DiL4) In Vitro Assay
Format: cell-based
Settings: ratio of DiMF MED to DiL4 MED

Compound: CC(C)C[C@H]1C(=O)O[C@H](Cc2ccc(N3CCOCC3)cc2)C(=O)N(C)[C@@H](CC(C)C)C(=O)O[C@H](C)C(=O)N(C)[C@@H](CC(C)C)C(=O)O[C@H](Cc2ccc(N3CCOCC3)cc2)C(=O)N(C)[C@@H](CC(C)C)C(=O)O[C@H](C)C(=O)N1C [emodepside, reference compound]
- selectivity ratio (DiMF/DiL4): 1
